From publication PMC4507180
The exact form of at least one protein or probe is not confirmed. For part of these data: Negatives hold for the conditions tested.

Tests used:
[1] = target: T1, DndB (Salmonella enterica serovar Cerro 87) (UniProt E2D676); assay: EMSA; details: 0-300 nM DndB; EMSA: 20 mM Tris-HCl pH 8.0, 50 mM KCl, 10 mM MgCl2, 5 mM EDTA, 10 mM DTT, 5% glycerol, room temperature 30 min, 20 nM DNA; recombinant protein; protein details: NusA-His tag N-terminal, removed by TEV; probe letters rebuilt from the primers and the genome
T1 sequence: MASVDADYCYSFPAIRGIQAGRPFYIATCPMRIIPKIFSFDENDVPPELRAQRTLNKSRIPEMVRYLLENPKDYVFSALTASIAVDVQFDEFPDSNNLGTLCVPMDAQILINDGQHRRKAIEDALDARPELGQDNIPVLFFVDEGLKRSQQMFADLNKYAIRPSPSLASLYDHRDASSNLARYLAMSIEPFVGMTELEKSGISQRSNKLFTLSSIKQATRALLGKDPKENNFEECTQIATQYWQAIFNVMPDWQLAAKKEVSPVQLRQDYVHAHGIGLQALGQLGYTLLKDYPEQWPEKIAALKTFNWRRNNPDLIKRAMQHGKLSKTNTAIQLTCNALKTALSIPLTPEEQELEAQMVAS

[2] = target: T1, DndB (Salmonella enterica serovar Cerro 87); assay: DNase I footprinting; details: two protected regions BB1 and BB2; footprinting: 25 C 30 min, 200 ng probe in 40 uL; recombinant protein; protein details: NusA-His tag N-terminal, removed by TEV; probe letters rebuilt from the primers and the genome; part of a longer molecule

| Sequence | binding result [1] | binding result [2] |
| --- | --- | --- |
| AGTGCTCGTGGCTGCTGTGTTATTATTTTAACCTCCGGGGAGAATGACGCTGATACCTCCTGTCGTTAACGGTAAGGGGATGTTCGATATGATGATTATCTCAACATCACCCGAACGTGTAATAAACTGTATCCAAATTAACTCCAGGCA (double strand) [B2] | no binding | – |
| GCATCTGAGCCGTTTGGCGGGGGCATGAATGCGAAACTGAATGCGTAACACCACCACGTTCATTGGTTCTGCGGTTGTTGCGCTGGACAGATTGGTGAGGCCAGGCAGCTGTTTGAAGGTTATGGTTCTATGTCTCTATTGACTAGATGGTATTGCAGGTGCTTTTCGGTCTGAAGAAAAAGCATAAACCTATGATGTTCGAATTGGCGTTGCTGCGTGGTTACCCTGT (double strand) [B3] | no binding | – |
| GCTGTAATCCGTGTAAAAATCGAATGAATTGAGTTACGTGATATTTTACGTAATGCTTAATAAAATTTATAGTTTTTTTTATGTTTTACGTGATTTTTTGCGTACAGGGTTCCATATCTGAGA (double strand) [B1 footprint probe] | – | binds |
